Results of unrelated studies side by side (data: NIAID ChemDB).

Common to all: target-level tests; agent: HIV-1; protein: Protease; method: HPLC; read-out: IC50

ICn: concentration for n% inhibition. a–b is a range or a potency band. Neighbouring rows are from separate reports. Blank or dashed fields: not listed here.

compound,strain or isolate,setting,value
O=c1oc2ccccc2c(O)c1Cc1ccccc1,,pH 5.2,120 µM
COC(=O)[C@]12CCC(C)(C)CC1C1=CCC3[C@@]4(C)CC[C@H](NC(=O)CCCCC(=O)N[C@H]5CC[C@@]6(C)C(CC[C@]7(C)C6CC=C6C8CC(C)(C)CC[C@]8(C(=O)OC)CC[C@]67C)C5(C)C)C(C)(C)C4CC[C@@]3(C)[C@]1(C)CC2,,,>20 µM
CC(C)(C)OC(=O)N[C@@H](Cc1ccccc1)[C@H](O)CNC[C@@H](O)[C@H](Cc1ccccc1)NC(=O)C(N)C(F)(F)F,,pH 5.5,<10 µM
Cc1ccc(F)cc1CNC(=O)[C@H]1N(C(=O)[C@@H](O)[C@H](Cc2ccccc2)NC(=O)c2cccc(O)c2C)CSC1(C)C,,,<0.05 µg/mL
CC(C)CC(SCc1ccccc1)c1c(O)cc(-c2ccccc2)oc1=O,,pH 6.2,0.3 µM
CC1(C)S[C@@H]2[C@H](NC(=O)Cc3ccccc3)C(=O)N2[C@H]1C(=O)NCCNC(=O)[C@@H]1N2C(=O)[C@@H](NC(=O)Cc3ccccc3)[C@H]2SC1(C)C,RF,,0.06 µM
COC(=O)[C@]12CCC(C)(C)CC1C1=CCC3[C@@]4(C)CC[C@@H](N)C(C)(C)C4CC[C@@]3(C)[C@]1(C)CC2,,,>20 µM
CCC(C)[C@H](NC(=O)CCCCCCCCCCCCCCC(=O)N[C@@H](CC(N)=O)C(=O)N[C@@H](Cc1ccccc1)C(=O)O)C(=O)N[C@@H](Cc1ccc([N+](=O)[O-])cc1)C(N)=O,,,0.59 µM
CC(C)(C)NC(=O)[C@@H]1CCCN1C(=O)[C@@H](O)[C@H](Cc1ccccc1)NC(=O)[C@H](CC(N)=O)NC(=O)COc1cccc2ccccc12,,,0.0032–0.0123 µM
Cc1ccccc1CNC(=O)[C@H]1N(C(=O)[C@@H](O)[C@H](Cc2ccccc2)NC(=O)c2cccc(O)c2C)CSC1(C)C,,,<0.05 µg/mL
CC(C)(C)NC(=O)[C@H]1N(C(=O)[C@@H](O)[C@H](Cc2ccccc2)NC(=O)[C@H](CC(N)=O)NC(=O)COc2cccc3cnccc23)CSC1(C)C,,,0.0022 µM
Cc1c(O)cccc1C(=O)N[C@@H](Cc1ccccc1)[C@H](O)C(=O)N1CSC(C)(C)[C@H]1C(=O)NC12CC3CC(CC(C3)C1)C2,,,>0.05 µM
CC(C)(C)NC(=O)[C@@H]1CSCN1C(=O)[C@@H](O)[C@H](Cc1ccccc1)NC(=O)[C@H](CC(N)=O)NC(=O)OCc1ccccc1,,,0.45 µM
CC(C)(C)OC(=O)N[C@@H](Cc1ccccc1)[C@H](O)CNC[C@@H](O)[C@H](Cc1ccccc1)NC(=O)/C(=N/O)C(C)(C)C,,pH 5.5,<10 µM
C[C@H]1[C@H](C)CC[C@]2(CO)CC[C@]3(C)C(=CC[C@@H]4[C@@]5(C)CC[C@H](O)C(C)(C)[C@@H]5CC[C@]43C)[C@H]12,,,5.5 µM
CCC(C)[C@H](NC(=O)CCCCCCCCCCCCCCC(=O)N[C@@H](CC(N)=O)C(=O)N[C@@H](CCc1ccccc1)C(=O)O)C(=O)N[C@@H](Cc1ccccc1)C(N)=O,,,0.792 µM
COC(=O)[C@]12CCC(C)(C)C[C@H]1C1=CC[C@@H]3[C@@]4(C)CC/C(=N\OC(=O)CCCCC(=O)OC[C@H]5O[C@@H](n6cc(C)c(=O)[nH]c6=O)C[C@@H]5N=[N+]=[N-])C(C)(C)[C@@H]4CC[C@@]3(C)[C@]1(C)CC2,,,16 µM
Cc1c(O)cccc1C(=O)N[C@@H](Cc1ccccc1)[C@H](O)C(=O)N1CSC(C)(C)[C@H]1C(=O)NC1CCc2ccccc21,,,<0.05 µM
C=C(C)[C@@H]1CC[C@]2(C(=O)OC)CC[C@]3(C)[C@H](CC[C@@H]4[C@@]5(C)CC[C@H](O)C(C)(C)[C@@H]5CC[C@]43C)[C@@H]12,,,>25 µM
CC(=O)N[C@@H](CC(C)C)C(=O)N[C@@H](Cc1ccccc1)C(O)=C(C#N)C#N,,,>400 µM
Cc1cccc(C)c1OCC(=O)N[C@@H](Cc1ccccc1)[C@H](O)C(=O)N1CSC(C)(C)[C@H]1C(=O)NN(C)c1ccccc1,,,>0.05 µM
Cc1ccccc1CNC(=O)[C@H]1N(C(=O)[C@@H](O)[C@H](Cc2ccc(OC(C)C)cc2)NC(=O)c2cccc(O)c2C)CSC1(C)C,,,<0.05 µg/mL
CC(C)(C)OC(=O)N[C@@H](Cc1ccccc1)[C@H](O)CNC[C@@H](O)[C@H](Cc1ccccc1)NC(=O)[C@@H](NC(=O)OCc1ccccc1)c1ccccc1,,pH 5.5,<10 µM
CCC(C)[C@H](NC(=O)CCCCCCCCCCCCCCC(=O)N[C@@H](CC(N)=O)C(=O)N[C@@H](Cc1ccc2ccccc2c1)C(=O)O)C(=O)N[C@@H](Cc1ccccc1)C(N)=O,,,0.627 µM
Cc1cc(SC2=C(O)CC(CCc3ccc(O)cc3)(C(C)C)OC2=O)c(C(C)(C)C)cc1CO,,,0.00363 µM
CC1(C)CCC[C@@]1(O)C(=O)N[C@@H](Cc1ccccc1)[C@H](O)CNC[C@@H](O)[C@H](Cc1ccccc1)NC(=O)[C@@]1(O)CCCC1(C)C,,pH 5.5,<10 µM
CC(C)CCC[C@@H](C)[C@H]1CC[C@H]2[C@@H]3CC[C@H]4C[C@@H](CCC=C(c5cc(Cl)c(O)c(C(=O)O)c5)c5cc(Cl)c(O)c(C(=O)O)c5)CC[C@]4(C)[C@H]3CC[C@]12C,,,0.55 µM
CC(C)(NC(=O)CCCCCCCCCCCCCCC(=O)N[C@@H](CC(N)=O)C(=O)N[C@@H](Cc1ccccc1)C(=O)O)C(=O)N[C@@H](Cc1ccccc1)C(N)=O,,,>1 µM
Cc1c(O)cccc1C(=O)N[C@@H](Cc1ccccc1)[C@H](O)C(=O)N1CSC(C)(C)[C@H]1C(=O)NCc1cccnc1,,,<0.05 µM
COc1ccc(S(=O)(=O)NC(N)=NCCC[C@H](NC(=O)N[C@@H](Cc2ccccc2)C(=O)OC(C)(C)C)C(=O)N[C@H](C(=O)N[C@H](C=O)Cc2ccccc2)C(C)C)cc1,,,>100 µM
Cc1cccc(C)c1OCC(=O)N[C@@H](Cc1ccccc1)[C@H](O)C(=O)N1CSC(C)(C)[C@H]1C(=O)NC(C)(C)c1ccccc1,,,<0.05 µM
O=C(c1ccccc1)c1c(O)cc(-c2ccccc2)oc1=O,,pH 5.2,81 µM
CCCC[C@H](NC(=O)[C@@H](NC(=O)[C@H](Cc1cccc2ccccc12)CS(=O)(=O)C(C)(C)C)C(C)C)[C@@H](O)[C@H](O)[C@H](CCCC)NC(=O)[C@@H](NC(=O)[C@H](Cc1cccc2ccccc12)CS(=O)(=O)C(C)(C)C)C(C)C,D34,,0.001 µM
C=C(C)C1CC[C@]2(C(=O)O)CC[C@]3(C)[C@H](CC[C@@H]4[C@@]5(C)CC[C@H](OC(=O)CCC(=O)O)C(C)(C)[C@@H]5CC[C@]43C)[C@@H]12,,,6 µM
CC(C)(C)NC(=O)[C@H]1N(C(=O)[C@@H](O)[C@H](Cc2ccccc2)NC(=O)[C@H](CC(N)=O)NC(=O)COc2cccc(-c3ccccc3)c2)CSC1(C)C,,,0.003 µM
CC(C)[C@H](NC(=O)[C@H](CCCN=C(N)N)NC(=O)N[C@@H](Cc1ccccc1)C(=O)O)C(=O)NC(C=O)Cc1ccccc1,,,8.95 µM
COC(=O)[C@]12CC[C@@H](C)[C@H](C)[C@H]1C1=CC[C@@H]3[C@@]4(C)CC[C@H](O)C(C)(C)[C@@H]4CC[C@@]3(C)[C@]1(C)CC2,,,14 µM
CC(C)[C@H](NC(=O)OCc1ccc(-c2ccccc2)cc1)C(=O)N[C@@H](Cc1ccccc1)[C@H](O)CNC[C@@H](O)[C@H](Cc1ccccc1)NC(=O)OC(C)(C)C,,pH 5.5,<10 µM
Cc1c(O)cccc1C(=O)N[C@@H](Cc1ccccc1)[C@H](O)C(=O)N1CSC(C)(C)[C@H]1C(=O)NCc1ccncc1,,,>0.05 µM
O=c1oc2ccccc2c(O)c1CCCOc1ccccc1,,pH 5.2,2.7 µM
CC1(C)S[C@H]([C@H](NC(=O)Cc2ccccc2)C(=O)NCc2ccccc2)N[C@H]1C(=O)N[C@H](Cc1ccccc1)[C@H](O)CC(=O)NCc1ccccc1,RF,,0.0046 µM
O=c1oc(-c2ccccc2)cc(O)c1C(SC1CCCC1)C1CCCC1,,pH 6.2,0.2 µM
C=C(C)[C@@H]1CC[C@]2(C(=O)O)CC[C@]3(C)[C@H](CC[C@@H]4[C@@]5(C)CC[C@H](O)C(C)(C)[C@@H]5CC[C@]43C)[C@@H]12,,,9 µM
CCOc1ccccc1CNC(=O)[C@H]1N(C(=O)[C@@H](O)[C@H](Cc2ccccc2)NC(=O)c2cccc(O)c2C)CSC1(C)C,,,~0.05 µM
CC(C)(C)OC(=O)N[C@@H](Cc1ccccc1)[C@H](O)CNC[C@@H](O)[C@H](Cc1ccccc1)NC(=O)OC(C)(C)CCCO,,pH 5.5,<10 µM
Cc1cn([C@H]2C[C@H](N=[N+]=[N-])[C@@H](COC(=O)CCCCC(=O)N[C@H]3CC[C@]4(C)[C@H]5CC=C6[C@@H]7CC(C)(C)CC[C@]7(C(=O)O)CC[C@@]6(C)[C@]5(C)CC[C@H]4C3(C)C)O2)c(=O)[nH]c1=O,,,1.2 µM
Cc1c(O)cccc1C(=O)N[C@@H](Cc1ccccc1)[C@H](O)C(=O)N1CSC(C)(C)C1C(=O)NC(C)(C)c1ccccc1,,,<0.05 µM
CC(C)(C)OC(=O)N[C@@H](Cc1ccccc1)[C@H](O)CNC[C@@H](O)[C@H](Cc1ccccc1)NC(=O)C(CCO)C(C)(C)C,,pH 5.5,<10 µM
CCC(C)[C@H](NC(=O)CCCCCCCCCCCCCCC(=O)N[C@@H](CC(N)=O)C(=O)N[C@@H](Cc1ccc(C(=O)c2ccccc2)cc1)C(=O)O)C(=O)N[C@@H](Cc1ccccc1)C(N)=O,,,0.635 µM
O=c1c2ccccc2n2nnc3ccc(NCCCN4CCN(CCCNc5ccc6nnn7c8ccccc8c(=O)c5c67)CC4)c1c32,,,>100 µM
CCC(C)[C@H](NC(=O)CCCCCCCCCCCCCCC(=O)N[C@@H](CC(N)=O)C(=O)N[C@@H](Cc1ccccc1)C(=O)O)C(=O)N[C@@H](CCO)C(N)=O,,,>1 µM
COc1ccc(C[C@H](NC(=O)c2ccc(F)c(O)c2C)[C@H](O)C(=O)N2CSC(C)(C)[C@H]2C(=O)NCc2ccccc2C)cc1,,,<0.05 µg/mL
CC(C)(C)OC(=O)N1CCC[C@H]1C(O)CNCC(O)[C@@H]1CCCN1C(=O)OC(C)(C)C,,pH 5.5,>10 µM
CCOc1ccc(C[C@H](NC(=O)c2cccc(O)c2C)[C@H](O)C(=O)N2CSC(C)(C)[C@H]2C(=O)NCc2ccccc2C)cc1,,,<0.05 µg/mL
NC(=O)C[C@H](NC(=O)CCCCCCCCCCCCCCC(=O)N[C@@H](Cc1ccc(F)c(F)c1)C(=O)N[C@@H](Cc1ccccc1)C(N)=O)C(=O)N[C@@H](Cc1ccccc1)C(=O)O,,,1.13 µM